For assay [1], the system named is wild-type Salmonella (ASD200) live cells. In words: Live-cell growth assay, concentration-response (IC50/IC90) of the top 8 purchased compounds. Format: cell-based, Salmonella enterica serovar Typhimurium. The note with it: M9 minimal medium, 5 mM glucose, 1 mM F-Asn, 17-h time point, 95% CI in brackets.
The target in the next assay is recombinant FraB (Salmonella enterica subsp. enterica serovar Typhimurium, UniProt Q8ZLD0). Particulars: read-out: IC50 with recombinant FraB (mean ± SE); 0.2 μM His6-FraB, 1 mM 6-P-F-Asp, 30 min preincubation; NI = no inhibition observed with 1 mM compound.

Chains of the proteins cited; added tags and fusions are not shown. Residues count along the entry.
UniProt Q8ZLD0, 1-325: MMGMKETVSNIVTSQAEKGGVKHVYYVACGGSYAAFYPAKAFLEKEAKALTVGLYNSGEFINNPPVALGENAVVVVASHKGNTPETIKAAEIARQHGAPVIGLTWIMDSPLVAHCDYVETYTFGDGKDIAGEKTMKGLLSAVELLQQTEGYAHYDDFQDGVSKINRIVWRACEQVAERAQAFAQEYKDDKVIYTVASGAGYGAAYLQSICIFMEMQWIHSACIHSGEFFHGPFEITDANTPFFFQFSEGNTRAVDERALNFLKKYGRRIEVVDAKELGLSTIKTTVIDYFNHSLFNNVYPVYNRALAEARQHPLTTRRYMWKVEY

This note sets out measurements from publication PMC10100877, “Identification of Small-Molecule Inhibitors of the Salmonella FraB Deglycase Using a Live-Cell Assay” (Microbiology Spectrum, 2023).

Structures are written as SMILES. Only a part of the results on these compounds is given; other tests are left out.

Broadly, the IC50 is the concentration that inhibits the measured activity by half. As usually defined, the IC90 is the point of the concentration-response curve where the effect stands at 90%. In the case of `Nc1nonc1-c1no[n+]([O-])c1-c1nonc1N`, the IC50 in assay [1] (read-out: IC50 with live cells, value (95% CI), concentration that inhibits growth to 50%) was 89 µM; on recombinant FraB it was over 500 µM. Moreover, in assay [1] (read-out: IC90 with live cells, value (95% CI), concentration that inhibits growth to 90%), the IC90 is 259 µM.
